The values below come from paper PMC3904692.

Construct, isoform or probe ends are uncertain for at least one entry. Where a protein sequence is shown, tags need not be part of it.

In this data set the target is T1, EBNA1 DBD (Epstein-Barr virus) (UniProt P03211).
T1 sequence (looked up, limits assumed): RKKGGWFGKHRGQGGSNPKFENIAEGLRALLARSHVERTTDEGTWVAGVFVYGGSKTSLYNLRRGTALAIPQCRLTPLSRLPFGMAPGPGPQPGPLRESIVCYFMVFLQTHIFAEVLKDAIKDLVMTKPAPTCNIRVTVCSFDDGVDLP
Description: EMSA. Particulars: 0, 100, 300, 900 ng protein, poly(dI-dC); 10 mM Tris-Cl pH 8.0, 100 mM KCl, 1 mM EDTA, 10 mM MgCl2, 0.05 ug/ul poly(dI-dC), 0.5 ug/ul BSA, 0.05% NP40, 35 mM beta-mercaptoethanol, 10% glycerol; room temperature; recombinant protein; label: 32P (5' end, T4 PNK). For orientation: A gel shift assay detects complexes by their altered migration in electrophoresis.

Take “TTTCTTATTTTCCAGGCAGCATATACTATCTCAAGCTCACCATGTC (double strand) [GKN1/2 site probe]”: the binding result is “binds”.
